Results of unrelated studies side by side (data: NIAID ChemDB).

All rows: host cell toxicity; cells: MT-4; read-out: CC50

Lines come from different laboratories, so protocols vary. CCn is the concentration with n% toxicity to the cells.

{"compound": "CCCCCCCCCCCCCC(=O)O[C@@H]1[C@@H](C)[C@@]2(O)[C@@H](C=C(CO)C[C@]3(O)C(=O)C(C)=C[C@@H]23)[C@@H]2C(C)(C)[C@]12OC(C)=O", "value": ">31.3 µg/mL"}
{"compound": "CSc1ccc2c(C)nc(CCCCCCC(=O)c3ccccc3)n2n1", "value": "27 µM"}
{"compound": "Cc1cn([C@@H]2C[C@@H](N=[N+]=[N-])[C@H](COC(=O)NCCCCNC(=O)OC[C@H]3O[C@@H](n4cc(C)c(=O)[nH]c4=O)C[C@@H]3N=[N+]=[N-])O2)c(=O)[nH]c1=O", "method": "MTT", "value": "153.7 µM"}
{"compound": "COc1ccc(CN=C2C=C(Cc3ccccc3)NS(=O)(=O)N2)cc1", "method": "MTT", "value": "300 µM"}
{"compound": "Cc1c(CCC2CCCCC2)nc(SCC(=O)c2ccccc2)[nH]c1=O", "method": "MTT", "value": "124 µM"}
{"compound": "CC(C)=CCN1C(C)Cn2c(=O)[nH]c3cc(Cl)cc(c32)S1(=O)=O", "method": "MTT", "value": ">200 µM"}
{"compound": "CCc1cc(NCc2nc3c(Cl)ccc(Cl)c3o2)c(=O)[nH]c1C", "value": ">60 µM"}
{"compound": "C=COC(=O)OC[C@H]1O[C@@H](n2cc(C)c(=O)[nH]c2=O)C[C@@H]1N=[N+]=[N-]", "method": "MTT", "value": "370.9 µM"}
{"compound": "Cc1c(CCC2CCCCC2)nc(SCC(=O)c2ccc(O)cc2)[nH]c1=O", "method": "MTT", "value": "8.2 µM"}
{"compound": "O=S1(=O)N=C(Nc2ccc(F)c(F)c2F)C=C(Cc2ccccc2)N1", "method": "MTT", "value": "198 µM"}
{"compound": "Cc1ccnc2c1NC(=O)c1cccnc1N2C1CC1", "method": "MTT", "value": ">200 µM"}
{"compound": "O=S1(=O)NC(Cc2ccc3ccccc3c2)=CC(=NCc2ccccc2)N1", "method": "MTT", "value": "161 µM"}
{"compound": "CCc1nc(CCCCCCC(=O)c2ccccc2)n2nc(Cl)ccc12", "value": "25 µM"}
{"compound": "CC1(C)S[C@H]([C@H](NC(=O)Cc2ccccc2)C(=O)NCC(=O)O)N[C@H]1C(=O)NCCNC(=O)[C@@H]1N[C@@H]([C@H](NC(=O)Cc2ccccc2)C(=O)NCC(=O)O)SC1(C)C", "value": ">100 µM"}
{"compound": "NC(=O)c1ccc(NC2=NS(=O)(=O)NC(Cc3ccccc3)=C2)cc1", "method": "MTT", "value": "286 µM"}
{"compound": "COc1ccc2nc3cc(Cl)ccc3c(NN3CCN(C)CC3)c2c1", "method": "MTT", "value": "8 µM"}
{"compound": "CC(=O)OCC1=C[C@H]2[C@@H]3C(C)(C)[C@]3(OC(C)=O)[C@H](OC(C)=O)[C@@H](C)[C@]2(O)[C@@H]2C=C(C)C(=O)[C@@H]2C1", "value": ">250 µg/mL"}
{"compound": "Cc1cn([C@@H]2C=C[C@H](COC(=O)OC[C@H]3O[C@@H](n4cc(C)c(=O)[nH]c4=O)C[C@@H]3N=[N+]=[N-])O2)c(=O)[nH]c1=O", "method": "MTT", "value": "174 µM"}
{"compound": "CO[C@]12CC(COC(C)=O)=C[C@H]3[C@@H]4C(C)(C)[C@]4(OC(C)=O)[C@H](OC(C)=O)[C@@H](C)[C@]3(O)[C@@H]1C=C(C)C2=O", "value": ">125 µg/mL"}
{"compound": "COc1ccc2nc3cc(Cl)ccc3c(NCC(C)N(C)C)c2c1", "method": "MTT", "value": "5.7 µM"}
{"compound": "COc1ccccc1NC1=NS(=O)(=O)NC(Cc2cccc3ccccc23)=C1", "method": "MTT", "value": "161 µM"}
{"compound": "CCN(C(C)C(=O)O)S(=O)(=O)c1cc(Cl)ccc1N", "method": "MTT", "value": ">200 µM"}
{"compound": "COc1ccc2nc3cc(Cl)ccc3c(NC(CO)C(C)C)c2c1", "method": "MTT", "value": "0.7 µM"}
{"compound": "Cc1ccnc2c1NC(=O)c1cccnc1N2C1CC1", "method": "MTT", "value": ">15 µM"}
{"compound": "Cc1cn([C@@H]2C=C[C@H](COC(=O)OC[C@@H]3C=C[C@H](n4cc(C)c(=O)[nH]c4=O)O3)O2)c(=O)[nH]c1=O", "method": "MTT", "value": ">52.7 µM"}
{"compound": "c1cc(CN2CCNCCNCCNCC2)cc(CN2CCNCCNCCNCC2)c1", "value": "6.4 µM"}
{"compound": "CCC(Cc1ccccc1)c1cc(O)c(C(c2cccc(NC(=O)[C@@H](C)NC(=O)OC(C)(C)C)c2)C2CC2)c(=O)o1", "value": ">30 µM"}
{"compound": "O=S1(=O)NC(Cc2ccccc2)=CC(=NCCc2ccccc2)N1", "method": "MTT", "value": "192 µM"}
{"compound": "Cc1nc(CCCCCOC(=O)c2ccccc2)n2nc(Cl)ccc12", "value": ">25 µM"}
{"compound": "COc1ccc2nc3cc(Cl)ccc3c(NCCCCCO)c2c1", "method": "MTT", "value": "2 µM"}
{"compound": "Cc1nc(CCCCCOCc2ccccc2)n2nc(Cl)ccc12", "value": "290 µM"}
{"compound": "NS(=O)(=O)c1ccc(NC(=O)CSc2nc3ncccc3n2-c2ccc(C3CC3)c3ccccc23)c(Br)c1", "method": "MTT", "value": "1.69 µM"}
{"compound": "CN(C)C(=O)N1CCN(C(=O)N(C)CCN2CCCC2)CC1", "method": "MTT", "value": "125 µg/mL"}
{"compound": "CCN(C)C1=NS(=O)(=O)NC(Cc2ccc3ccccc3c2)=C1", "method": "MTT", "value": "195 µM"}
{"compound": "CC(C)=CCN(C(C)C(=O)O)S(=O)(=O)c1cc(Cl)ccc1N", "method": "MTT", "value": ">200 µM"}
{"compound": "CN(C)C(=O)N1CCN(C(=O)N2CCOCC2)CC1", "method": "MTT", "value": ">125 µg/mL"}
{"compound": "CC(CC1CCCCC1)c1cc(=O)[nH]c(SCC(=O)c2ccc(O)cc2)n1", "method": "MTT", "value": "31 µM"}
{"compound": "CCNC(=O)[C@@H](NC(=O)c1ccccc1Cc1ccccc1)[C@@H]1N[C@@H](C(=O)NCCNC(=O)[C@@H]2N[C@@H]([C@H](NC(=O)c3ccccc3Cc3ccccc3)C(=O)NCC)SC2(C)C)C(C)(C)S1", "value": ">100 µM"}
{"compound": "CCOC(=O)C(C)N(CC)S(=O)(=O)c1cc(Cl)ccc1[N+](=O)[O-]", "method": "MTT", "value": "105 µM"}
{"compound": "C1CNCCNCC(CCCC2CNCCNCCCNCCNC2)CNCCNC1", "value": "400 µM"}
{"compound": "CC(C)=NOC(=O)OC[C@H]1O[C@@H](n2cc(C)c(=O)[nH]c2=O)C[C@@H]1N=[N+]=[N-]", "method": "MTT", "value": "182 µM"}
{"compound": "CC(CC1CCCCC1)c1cc(=O)[nH]c(SCC(=O)c2ccc(F)cc2)n1", "method": "MTT", "value": "108 µM"}
{"compound": "c1cc(CN2CCCNCCNCCCNCC2)ccc1CN1CCCNCCNCCCNCC1", "value": ">1 µg/mL"}
{"compound": "O=C(CSc1nc2ncccc2n1-c1ccc(C2CC2)c2ccccc12)Nc1cccnc1Cl", "method": "MTT", "value": "0.8 µM"}
{"compound": "CCCCCCCCCC(=O)O[C@@]12[C@H](OC(C)=O)[C@@H](C)[C@@]3(O)[C@@H](C=C(COC(C)=O)C[C@]4(OC)C(=O)C(C)=C[C@@H]34)[C@@H]1C2(C)C", "value": ">1.95 µg/mL"}
{"compound": "CC1(C)S[C@H]([C@H](NC(=O)Cc2ccccc2)C(=O)OCc2ccccc2)N[C@H]1C(=O)NCCNC(=O)[C@@H]1N[C@@H]([C@H](NC(=O)Cc2ccccc2)C(=O)OCc2ccccc2)SC1(C)C", "value": ">100 µM"}
{"compound": "CCC(Cc1ccccc1)c1cc(O)c(C(c2cccc(NC(=O)Cc3ccncc3)c2)C2CC2)c(=O)o1", "value": ">>30 µM"}
{"compound": "O=S1(=O)N=C(Nc2ccc(F)c(F)c2F)C=C(Cc2ccc3ccccc3c2)N1", "method": "MTT", "value": "143 µM"}
{"compound": "CN1CCN(C(=O)N2CCN(C(=O)N(C)C)CC2)CC1", "method": "MTT", "value": ">125 µg/mL"}
{"compound": "CC(=O)c1ccc(NC(=O)CSc2nc3ncccc3n2-c2ccc(C3CC3)c3ccccc23)c(Br)c1", "method": "MTT", "value": "2.89 µM"}
{"compound": "CCNC(=O)[C@@H](NC(=O)Cc1ccccc1)[C@@H]1N[C@@H](C(=O)NCCNC(=O)[C@@H]2N[C@@H]([C@H](NC(=O)Cc3ccccc3)C(=O)NCC)SC2(C)C)C(C)(C)S1", "value": ">100 µM"}
{"compound": "CCN1CCn2c(=O)[nH]c3cc(Cl)cc(c32)S1(=O)=O", "method": "MTT", "value": ">200 µM"}
{"compound": "Cc1nc(CCCCCCC(=O)c2ccccc2)n2nc(-n3cccc3)ccc12", "value": "26 µM"}
{"compound": "CCN(CC)C(=O)N1CCN(C(=O)N2CCCC2)CC1", "method": "MTT", "value": ">125 µg/mL"}
{"compound": "C1CNCCNCCNCCNCCNCCN1", "value": "<7.6 µM"}
{"compound": "Cc1nc(CCCCCCC(=O)c2ccccc2)n2nc(-n3cncn3)ccc12", "value": "26 µM"}
{"compound": "CCCCCCCCCCCC(=O)O[C@@H]1[C@@H](C)[C@@]2(O)[C@@H](C=C(COC(C)=O)C[C@@]3(O)C(=O)C(C)=C[C@@H]23)[C@@H]2C(C)(C)[C@]12OC(C)=O", "value": ">1000 µg/mL"}
{"compound": "C(CCC1CNCCNCCCNCCNC1)CCC1CNCCNCCCNCCNC1", "value": "210 µM"}

5 of the rows above, restated:

CCN(C(C)C(=O)O)S(=O)(=O)c1cc(Cl)ccc1N ; method: MTT ; value: >200 µM
C(CCC1CNCCNCCCNCCNC1)CCC1CNCCNCCCNCCNC1 ; value: 210 µM
c1cc(CN2CCNCCNCCNCC2)cc(CN2CCNCCNCCNCC2)c1 ; value: 6.4 µM
C1CNCCNCC(CCCC2CNCCNCCCNCCNC2)CNCCNC1 ; value: 400 µM
CCCCCCCCCCCCCC(=O)O[C@@H]1[C@@H](C)[C@@]2(O)[C@@H](C=C(CO)C[C@]3(O)C(=O)C(C)=C[C@@H]23)[C@@H]2C(C)(C)[C@]12OC(C)=O ; value: >31.3 µg/mL